Data as given in PMC9770395 (PLOS Neglected Tropical Diseases, 2022).

Tested on: net baseline intestinal fluid transport
Conditions: mouse, in vivo

SMILES: CC[C@H](C)C(=O)O[C@H]1C[C@@H](C)C=C2C=C[C@H](C)[C@H](CC[C@@H]3CC=CC(=O)O3)[C@H]21 [DHLV, α,β-dehydrolovastatin]
- Effect on net baseline fluid transport (fluid absorption at 30 min): unaffected
